Drawing on ChEMBL document CHEMBL1154216, “Development of a novel expression, ZI MAX/K ZI, for determination of the counter-anion effect on the antimicrobial activity of tetrabutylammonium salts” (2009), this text covers ZImax/KZI (mm microL/micromol) for 1 molecule.

The test system of one assay is Escherichia coli. In words: Antimicrobial activity against Escherichia coli K-12 C600 assessed as ratio of maximum zone of inhibition to concentration required to reach half maximum zone of inhibition after 24 hrs. The assay is classed as functional.
Assay [1] has as its system Staphylococcus epidermidis. Kind of assay: Antimicrobial activity against Staphylococcus epidermidis ATCC 12228 assessed as ratio of maximum zone of inhibition to concentration required to reach half maximum zone of inhibition after 24 hrs. The format is functional.

Consider `CCCC[N+](CCCC)(CCCC)CCCC.[C-]#N`, for which the ZImax/KZI (mm microL/micromol) with Escherichia coli stood at 2.48; in assay [1], 16.1.
